A mixed list of measured activities; the numbers were collected in NIAID ChemDB.

All rows: toxicity to cultured cells; cells: PBMC; endpoint: CC50

CCn is the concentration with n% toxicity to the cells. Rows are shuffled and stem from different studies.

structure	value
CC1(C)C=Cc2c(ccc3cc(C(=O)c4ccncc4)c(=O)oc23)O1	>1001 µM
CNC(=O)[C@H](Cc1c[nH]c2ccccc12)NC(=O)OC[C@H]1O[C@@H](n2cc(C)c(=O)[nH]c2=O)C[C@@H]1N=[N+]=[N-]	>100 µM
Nc1ncnc2c1ncn2[C@H]1CC[C@@H](CO)O1	>100 µM
Cc1cn([C@H]2C[C@H](N=[N+]=[N-])[C@@H](CO)O2)c(=O)[nH]c1=O	>100 µg/mL
Nc1ccn([C@H]2CC[C@@H](CO)O2)c(=O)n1	>100 µM
[N-]=[N+]=N[C@H]1[C@@H](O)[C@H](n2cnc3c(=O)[nH]c(N)nc32)O[C@@H]1CO	14.5 µM
OC[C@H]1C=C[C@@H](n2cnc3c2NCNC3=S)C1	>100 µM
Cc1cn([C@H]2C[C@H](N=[N+]=[N-])[C@@H](CO)O2)c(=O)[nH]c1=O	>100 µM
Nc1ncnc2c1ncn2[C@H]1CC[C@@H](CO)O1	>100 µM
Nc1nc2c(ncn2[C@@H]2O[C@H](CO)C=C2F)c(=O)[nH]1	>100 µM
COC(=O)[C@H](C)NP(=O)(OCC1C/C1=C/n1cnc2c(N)ncnc21)Oc1ccccc1	0.35 µM
CCCCN1C(=O)C(CC2CCCCC2)NC(=O)C12CCN(Cc1cnc(-c3ccccc3)[nH]1)CC2	12 µM
C#C[C@]1(CO)O[C@@H](n2cnc3c(N)nc(F)nc32)C[C@@H]1O	>10 µM
CC(C)Nc1cccnc1N1CCN(C(=O)c2cc3cc(NS(C)(=O)=O)ccc3[nH]2)CC1	>100 µM
Cc1cc(C)cc(Cn2c(=S)ccn(CC#N)c2=O)c1	>438 µM
c1cc(CN2CCCNCCNCCCNCC2)ccc1CN1CCCNCCNCCCNCC1	>1.68 µg/mL
Cc1cccc(Cn2c(=O)ccn(CC#N)c2=O)c1	302 µM
CC(C)OC(=O)OCOP(=O)(CO[C@H](C)Cn1cnc2c(N)ncnc21)OCOC(=O)OC(C)C	29 µM
O=C1N(Cc2ccc(CO)cc2)[C@H](Cc2ccccc2)[C@H](O)[C@@H](O)[C@@H](Cc2ccccc2)N1Cc1ccc(CO)cc1	77 µM
[N-]=[N+]=N[C@H]1[C@@H](O)[C@H](n2cnc3c(N)ncnc32)O[C@@H]1CO	59.4 µM
c1ccc(CNCc2ccc(CN3CCCNCCNCCCNCC3)cc2)nc1	>300 µM
Nc1ccn([C@H]2C=C[C@@H](CO)C2)c(=O)n1	>100 µM
Cc1ccccc1Cn1c(=O)ccn(CC#N)c1=O	>490 µM
Nc1nc(=O)n([C@@H]2O[C@H](CO)C=C2F)cc1F	>100 µM
Cc1cn([C@H]2C=C(N=[N+]=[N-])[C@@H](CO)O2)c(=O)[nH]c1=O	24.2 µM
COC(=O)[C@H](Cc1ccccc1)NC(=O)OC[C@H]1O[C@@H](n2cc(C)c(=O)[nH]c2=O)C[C@@H]1N=[N+]=[N-]	>100 µM
O=c1ccn([C@H]2CC[C@@H](CO)O2)c(=O)[nH]1	>100 µM
Cc1cn([C@H]2C[C@H](N=[N+]=[N-])[C@@H](CO)O2)c(=O)[nH]c1=O	>0.13 µM
Nc1nc2c(ncn2[C@H]2C=C[C@@H](CO)O2)c(=O)[nH]1	>100 µM
Cc1cn([C@H]2C[C@H](N=[N+]=[N-])[C@@H](CO)O2)c(=O)[nH]c1=O	>100 µM
Nc1ncnc2c1ncn2CCOCP(=O)(O)O	>100 µM
CC(C)(C)c1ccc(C(Cn2cccc(C(F)(F)F)c2=O)NC2Cc3ccccc3C2)cc1	17 µM
CCc1nc2sccn2c1C(=O)c1ccco1	110 µM
S=C(NCCc1ccccn1)Nc1ccc(Br)cn1	>100 µM
CNC(=O)[C@@H](Cc1c[nH]c2ccccc12)NC(=O)OC[C@H]1O[C@@H](n2cc(C)c(=O)[nH]c2=O)C[C@@H]1N=[N+]=[N-]	>100 µM
Cc1cn([C@H]2C[C@H](N=[N+]=[N-])[C@@H](CO)O2)c(=O)n(N)c1=O	>100 µM
Nc1ccn([C@H]2C=C[C@@H](CO)O2)c(=O)n1	65 µM
CCCCN1C(=O)C(CC(C)C)NC(=O)C12CCN(Cc1ccc(Oc3ccccc3)cc1)CC2	10.8 µM
O=C(NCCc1c[nH]c2ccccc12)C1=Cc2ccncc2CC1	18.4 µM
Cc1nc2cc3nc4ccccc4cc3cc2s1	16.8 µM
Cc1cn([C@H]2C[C@H](N=[N+]=[N-])[C@@H](CO)O2)c(=O)[nH]c1=O	>100 µM
Cc1cn([C@H]2C[C@H](N=[N+]=[N-])[C@@H](COP(=O)(O)OC[C@@H]3CC[C@H](n4cnc5c(=O)[nH]cnc54)O3)O2)c(=O)[nH]c1=O	>100 µM
CCC(Cc1ccccc1)c1cc(O)c(C(CC)c2ccccc2)c(=O)o1	20 µM
Cc1cn([C@H]2C[C@H](N=[N+]=[N-])[C@@H](CO)O2)c(=O)[nH]c1=O	>5.016 µM
CCOP(=O)(CO[C@H]1C[C@@H](n2cnc3c(N)nc(F)nc32)C(F)(F)C1)OCC	>100 µM
Cc1cn([C@@H]2C[C@@H](N=[N+]=[N-])[C@H](COP(=O)(O)OC[C@H]3O[C@@H](n4cc(C)c(=O)[nH]c4=O)C[C@@H]3N=[N+]=[N-])O2)c(=O)[nH]c1=O	16.5 µM

Repeating the final 5 entries:

Cc1cn([C@H]2C[C@H](N=[N+]=[N-])[C@@H](COP(=O)(O)OC[C@@H]3CC[C@H](n4cnc5c(=O)[nH]cnc54)O3)O2)c(=O)[nH]c1=O ; value: >100 µM
CCC(Cc1ccccc1)c1cc(O)c(C(CC)c2ccccc2)c(=O)o1 ; value: 20 µM
Cc1cn([C@H]2C[C@H](N=[N+]=[N-])[C@@H](CO)O2)c(=O)[nH]c1=O ; value: >5.016 µM
CCOP(=O)(CO[C@H]1C[C@@H](n2cnc3c(N)nc(F)nc32)C(F)(F)C1)OCC ; value: >100 µM
Cc1cn([C@@H]2C[C@@H](N=[N+]=[N-])[C@H](COP(=O)(O)OC[C@H]3O[C@@H](n4cc(C)c(=O)[nH]c4=O)C[C@@H]3N=[N+]=[N-])O2)c(=O)[nH]c1=O ; value: 16.5 µM